Test results: US20150093752

Target: T1, M.HhaI DNA cytosine-5 methyltransferase (UniProt P05102)
T1 sequence (looked up, limits assumed): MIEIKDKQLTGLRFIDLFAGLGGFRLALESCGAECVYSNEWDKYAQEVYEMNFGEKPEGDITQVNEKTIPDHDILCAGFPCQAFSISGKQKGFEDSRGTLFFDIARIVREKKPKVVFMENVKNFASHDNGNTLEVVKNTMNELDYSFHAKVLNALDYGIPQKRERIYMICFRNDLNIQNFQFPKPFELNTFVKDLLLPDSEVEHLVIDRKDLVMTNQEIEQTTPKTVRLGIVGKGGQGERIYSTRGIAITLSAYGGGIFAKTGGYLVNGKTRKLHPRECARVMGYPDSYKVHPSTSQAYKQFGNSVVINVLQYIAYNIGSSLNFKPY
Assay: activity assay
Conditions: purified recombinant protein

| Sequence | activity on this sequence (hmC at target C of GCGC (enzymatically introduced), hmC nearly fully converted to C, cofactor-free, 37 C 2 h, HPLC-MS) | activity on this sequence (13 mM formaldehyde forms hmC, then coupling of thiols, selenols or hydroxylamine, variant of duplex I:II hmC) |
| --- | --- | --- |
| TAATAATGCGCTAATAATAATAAT / TTATTACGCGATTATTATTATTA [duplex I:II hmC] | active |  |
| TAATAATGCGCTAATAATAATAAT / TTATTACGCGATTATTATTATTA [duplex I:II unmodified] |  | active |

The exact form of at least one protein or probe is not confirmed. Protein sequences can lack the tags named with them.
